Measured values from several laboratories, pooled; numbers as filed in NIAID ChemDB.

Shared fields: toxicity to cultured cells; cell line: MT-4; endpoint: CC50

Conditions beyond the fields shown may differ between rows. An empty or dashed field is not shown. CCn is the concentration with n% toxicity to the cells.

COc1ccc(Cl)cc1NC(=O)C1=C(C)NC(=O)C2C(N)=NN=C12 ; method: MTT ; result: 73.1 µg/mL
CCCCCCCCC(=O)OCOc1c2n(cc(C(=O)NCc3ccc(F)cc3F)c1=O)[C@@H]1CN(C2=O)[C@@H](C)CC[C@]12CC(OC)=NO2 ; method: luminescence ; result: 50 µM
Cc1cc(C#N)cc(C)c1Oc1nc(NC2CCN(S(N)(=O)=O)CC2)nc2ccsc12 ; method: MTT ; result: 20.35 µM
CC1=C(C(=O)Nc2cccc(Cl)c2Cl)C2=NN=C(N)C2C(=O)N1 ; method: MTT ; result: 19 µg/mL
CCc1nc([N+](=O)[O-])c(N2CCN(C(=O)CCC(=O)OC)CC2)n1Cc1ccccc1 ; result: 44.67 µg/mL
CCOC(=O)c1cc2c3cc(OC)ccc3c3ccc(N=[N+]=[N-])cc3n2c1C ; result: >300 µM
CC1=C(C(=O)Nc2ccc(Br)cc2)C2=NN=C(N)C2C(=O)N1 ; method: MTT ; result: 108.2 µg/mL
CC(=O)c1cc(-c2ccccc2)n(-c2cccc(N=[N+]=[N-])c2)c1C ; result: 6.3 µM
CCN1C[C@H](C)N2C(=C(O)C3C(=O)N4Cc5ccc(F)cc5OCCCS(=O)(=O)N(C)C(=N4)C32)C1=O ; result: 3.3 µM
Cc1c(Cc2c(Cl)cccc2Cl)nc(SC/C=C/c2ccc(N(C)C)cc2)[nH]c1=O ; method: MTT ; result: 54.35 µM
CCc1nc([N+](=O)[O-])c(N2CCN(C(=O)CCC(N)=O)CC2)n1Cc1ccccc1 ; result: ≥78.9 µg/mL
O=c1[nH]c(=O)n([C@H]2C=C(CO)CO2)cc1Cl ; result: >100 µg/mL
COCCOCCOC(=O)OCOc1c2n(cc(C(=O)NCc3ccc(F)cc3F)c1=O)[C@@H]1CN(C2=O)[C@@H](C)CC[C@]12CC(OC)=NO2 ; method: luminescence ; result: 50 µM
CCN1C[C@H](C)N2C(=C(O)C3C(=O)N4Cc5ccc(F)cc5C(=O)NCCCCCCN(C)C(=N4)C32)C1=O ; result: 2 µM
Cc1cc(SC2CCCCC2)nc(Nc2ccc(C#N)cc2)n1 ; result: >192 µM
CCCCCCCCCCCCCCCC(=O)OCOc1c2n(cc(C(=O)NCc3ccc(F)cc3F)c1=O)[C@@H]1CN(C2=O)[C@@H](C)CC[C@]12CC(OC)=NO2 ; method: luminescence ; result: 50 µM
Cc1cc(C#N)cc(C)c1Oc1nc(Nc2ccc(NS(C)(=O)=O)cc2)nc2ccsc12 ; method: MTT ; result: >268.4 µM
CCOC(=O)c1cc(-c2ccccc2)n(-c2cccc(N)c2)c1C ; result: >300 µM
O=C(COc1nsnc1-c1cccc2ccccc12)Nc1ccccc1Cl ; method: MTT ; result: >126 µM
CCc1nc([N+](=O)[O-])c(N2CCN(C(=O)CSC)CC2)n1Cc1ccccc1.COc1ccccc1 ; result: 7.77 µg/mL
Cc1cc(C#N)cc(C)c1Oc1nc(Nc2ccc(N)cc2)nc2ccsc12 ; method: MTT ; result: 19.39 µM
CCOC(=O)CSCC(=O)N1CCN(c2c([N+](=O)[O-])nc(CC)n2Cc2ccccc2)CC1 ; result: 10.67 µg/mL
N#Cc1ccc(Nc2nccc(SC3CCCCC3)n2)cc1 ; result: >403 µM
CCCCCCCCCCCCOC(=O)OCOc1c2n(cc(C(=O)NCc3ccc(F)cc3F)c1=O)[C@@H]1CN(C2=O)[C@@H](C)CC[C@]12CC(OC)=NO2 ; method: luminescence ; result: 50 µM
Clc1ccc(Cn2cc(COc3nsnc3-c3cccc4ccccc34)nn2)cc1 ; method: MTT ; result: >115 µM
COc1ccc(/C=C/CSc2nc(C(C)c3c(F)cccc3F)c(C)c(=O)[nH]2)cc1 ; method: MTT ; result: >11.7 µM
CC1(C)[C@@H](CCO)C[C@H]1n1nnc2c(=O)[nH]cnc21 ; result: 112 µg/mL
Cn1nnc(CN2CCn3c(nc(C(=O)NCc4ccc(F)cc4)c(O)c3=O)C2(C)C)n1 ; method: microscopy ; result: >1 µM
Cc1cc(C#N)cc(C)c1Oc1nc(NC2CCN(S(=O)(=O)c3ccc([N+](=O)[O-])cc3)CC2)nc2ccsc12 ; method: MTT ; result: 81.73 µM
C=Cc1cc(N(CC)CC)nc(S(=O)(=O)Cc2ccc(OC)cc2)n1 ; method: MTT ; result: 42.9 µM
Cc1cc(CNC(=O)c2nc3n(c(=O)c2O)CCN(CC2CC2)CC3N(C)C(=O)C(=O)N(C)C)ccc1F ; method: microscopy ; result: >1 µM
Cc1cc(C#N)cc(C)c1Oc1nc(Nc2ccc(NS(N)(=O)=O)cc2)nc2ccsc12 ; method: MTT ; result: 25.06 µM
CC(=O)N[C@H]1C[C@H](n2cc(C)c(=O)[nH]c2=O)O[C@@H]1CO ; result: 10 µM
CCOC(=O)c1ccc(NC(=O)COc2nsnc2-c2cccc3ccccc23)c(Br)c1 ; method: MTT ; result: >98 µM
CC1(C)c2nc(C(=O)NCc3ccc(F)cc3)c(O)c(=O)n2CCN1CCc1ccccn1 ; method: microscopy ; result: >1 µM
N#Cc1ccc(Nc2nccc(OC3CCCCC3)n2)cc1 ; result: 322 µM
CCCC(=O)N[C@H]1C[C@H](n2cc(C)c(=O)[nH]c2=O)O[C@@H]1CO ; result: 1000 µM
O=C(COc1nsnc1-c1cccc2ccccc12)Nc1ccc(Cl)cc1Cl ; method: MTT ; result: >116 µM
CCc1c(C(C)c2c(F)cccc2F)nc(SC/C=C/c2ccc(OC)cc2)[nH]c1=O ; method: MTT ; result: 5.54 µM
CCCCCCCCCCCCCCCCCC(=O)OCOc1c2n(cc(C(=O)NCc3ccc(F)cc3F)c1=O)[C@@H]1CN(C2=O)[C@@H](C)CC[C@]12CC(OC)=NO2 ; method: luminescence ; result: 50 µM
Nc1nc2c(ncn2[C@H]2CO[C@@H](CCP(=O)(O)O)O2)c(=O)[nH]1 ; result: 90 µg/mL
CCc1nc([N+](=O)[O-])c(N2CCN(C(=O)c3ccc(Cl)cc3Cl)CC2)n1Cc1ccccc1 ; result: 17.73 µg/mL
Cc1cc(C#N)cc(C)c1Oc1nc(Nc2ccc(NS(=O)(=O)c3ccc4ccccc4c3)cc2)nc2ccsc12 ; method: MTT ; result: >216.3 µM
CN1CCc2nc(C(=O)NCc3ccc(F)cc3)c(O)c(=O)n2C1=O ; method: microscopy ; result: >1 µM
CC1=C(C(=O)Nc2ccccc2C)C2=NN=C(N)C2C(=O)N1 ; method: MTT ; result: 83.3 µg/mL
CC(=O)N1CCn2c(nc(C(=O)NCc3ccc(F)cc3)c(O)c2=O)C(N(C)Cc2ccccc2)C1 ; method: microscopy ; result: >1 µM
CC1(C)[C@@H](CCO)C[C@H]1n1cnc2c(N)nc(N)nc21 ; result: ≥250 µg/mL
CCc1ccc(NC(=O)C2=C(C)NC(=O)C3C(N)=NN=C23)cc1 ; method: MTT ; result: >98 µg/mL
NC(=O)OCc1ncc(Sc2cc(Cl)cc(Cl)c2)n1Cc1ccncc1 ; result: 11 µg/mL
O=C(COc1nsnc1-c1cccc2ccccc12)Nc1ccccn1 ; method: MTT ; result: ≥13 µM
Cc1cnc(Nc2ccc(C#N)cc2)nc1OC1CCCCC1 ; result: 31.23 µM
COc1ccc(/C=C/CSc2nc(C(C)c3c(Cl)cccc3Cl)c(C)c(=O)[nH]2)cc1 ; method: MTT ; result: >10.84 µM
O=C(COc1nsnc1-c1cccc2ccccc12)Nc1ccccc1F ; method: MTT ; result: >126 µM
CCc1nc([N+](=O)[O-])c(N2CCN(C(=O)c3ccc(OC)cc3)CC2)n1Cc1ccccc1 ; result: 71.53 µg/mL
CCOC(=O)c1cc(-c2cccc([N+](=O)[O-])c2)n(-c2ccccc2)c1C ; result: 212 µM
CCc1c(C(C)c2c(F)cccc2F)nc(SC/C=C/c2ccc([N+](=O)[O-])cc2)[nH]c1=O ; method: MTT ; result: 575 µM
CC1(C)[C@@H](CCO)C[C@H]1n1nnc2c(N)ncnc21 ; result: 83 µg/mL
Nc1ccn([C@H]2CC[C@@H](CO)O2)c(=O)n1 ; result: 34 µM
CCOC(=O)c1cc2ccc(Nc3cccc(CF)c3)cc2[nH]1 ; method: MTT ; result: >80 µM
Nc1nc(=O)n([C@H]2CC[C@@H](CO)O2)cc1Cl ; result: >500 µM
Cc1c(C(C)c2c(F)cccc2F)nc(SC/C=C/c2ccc([N+](=O)[O-])cc2)[nH]c1=O ; method: MTT ; result: >11.28 µM
Cn1c([S-])nc2nc(-c3ccccc3)c(-c3ccccc3)nc2c1=O.[Cl][Pt+2][Cl] ; result: 2.23 µg/mL

For reference, 6 entries again:

smiles | method | result
N#Cc1ccc(Nc2nccc(SC3CCCCC3)n2)cc1 |  | >403 µM
Cc1cc(C#N)cc(C)c1Oc1nc(NC2CCN(S(=O)(=O)c3ccc([N+](=O)[O-])cc3)CC2)nc2ccsc12 | MTT | 81.73 µM
COc1ccc(Cl)cc1NC(=O)C1=C(C)NC(=O)C2C(N)=NN=C12 | MTT | 73.1 µg/mL
NC(=O)OCc1ncc(Sc2cc(Cl)cc(Cl)c2)n1Cc1ccncc1 |  | 11 µg/mL
CCOC(=O)c1cc2ccc(Nc3cccc(CF)c3)cc2[nH]1 | MTT | >80 µM
COCCOCCOC(=O)OCOc1c2n(cc(C(=O)NCc3ccc(F)cc3F)c1=O)[C@@H]1CN(C2=O)[C@@H](C)CC[C@]12CC(OC)=NO2 | luminescence | 50 µM